Experiment in all cases: pseudovirus neutralization IC50; higher = weaker neutralization
The target in assay [1] is SARS-CoV-2 Omicron BA.1 spike pseudovirus. As to the method: (§1)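 Single-round VSV luciferase pseudovirus mixed with antibody dilutions for 1 h and put on Huh-7 cells for about a day; IC50 from the dose curve.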
In assay [2] the target is SARS-CoV-2 Omicron BA.2 spike pseudovirus. Here is the method: as §1
For assay [3], the target named is SARS-CoV-2 Omicron BA.2.75 spike pseudovirus. Here is the method: as §1
Assay [4] has as its target SARS-CoV-2 Omicron BA.2.75.2 spike pseudovirus. As to the method: as §1
Assay [5] has as its target SARS-CoV-2 Omicron BA.5 spike pseudovirus. Here is the method:
as §1

Assay [6] deals with SARS-CoV-2 Omicron BM.1.1.1 spike pseudovirus. Here is the method:
as §1

The target in assay [7] is SARS-CoV-2 Omicron BQ.1.1 spike pseudovirus. As to the method:
as §1

Assay [8] has as its target SARS-CoV-2 Omicron BR.2 spike pseudovirus. As to the method: as §1
Assay [9] concerns the target SARS-CoV-2 Omicron CA.1 spike pseudovirus. As to the method: as §1
The target of assay [10] is SARS-CoV-2 Omicron XBB spike pseudovirus. Here is the method: as §1
In assay [11] the target is SARS-CoV-2 early D614G spike pseudovirus. As to the method:
as §1

Human monoclonal antibodies against the spike receptor-binding domain (heavy:light variable regions). IC50 against pseudoviruses bearing the spike of naturally observed variants; lower = stronger; >10 µg/ml means not reached at the top dose. No active / inactive call. The stated detection limit is 0.0005 µg/ml; values near or below 0.001 µg/ml lie at the floor of the assay.

B1: BD56-831 (protein)
chain 1: QVQLVESGGGLVKPGGSLRLSCAASGFTFSDYYMSWIRQAPGKGLEWVSYISTSGSTIYYADSVKGRFTVSRDNAKNSLYLQMNSLRAEDTAVYYCARELGGEPPAHWGQGTLVTVSS
chain 2: QPVLTQPPSASASLGASVTLTCTLSSGYSNYIVDWHQQRPGKGPRFVMRVGTGGIVGSKGDGIPDRFSVLGSGLNRYLTIKNIQEEDESDYHCGADHGSGSNFVYVFGTGTKVTVL
Turning to B1, the “pseudovirus neutralization IC50” value in assay [1] was 0.0059 µg/mL; in assay [2], 0.00428 µg/mL; in assay [3], 0.0623 µg/mL; in [4], greater than 10 µg/mL; in assay [5], greater than 10 µg/mL; in [6], greater than 10 µg/mL. Besides, the “pseudovirus neutralization IC50” value in [7], in assay [8], in assay [9], in assay [10] and in [11] was greater than 10 µg/mL throughout.

B2: BD56-826 (protein)
chain 1: QVQLQESGPGLVKPSQTLSLTCTVSGGSISSGDYYWSWIRQPPGKGLEWIGSIYYSGTTYYNPSLKSRVTISVDTSKNQFSLKLSSVTAADTAVYYCAGGGLEYFQHWGQGPLVTVSS
chain 2: AIQLTQSPSSLSASVGDRVTISCRASQGLSSVLNWYQQKPGKAPKLLIYDASSLESGVPSRFSGSGSGTDFTLTISSLQPEDFATYYCQQFNSYLLTFGPGTKVDIK
With B2, the “pseudovirus neutralization IC50” value in assay [1] was 0.00268 µg/mL; in assay [2], greater than 10 µg/mL; in assay [3], greater than 10 µg/mL; in assay [4], greater than 10 µg/mL; in assay [5], greater than 10 µg/mL; in assay [6], greater than 10 µg/mL. Also, the “pseudovirus neutralization IC50” value in assay [7], in assay [8], in assay [9], in [10] and in assay [11] was greater than 10 µg/mL throughout.

B3: BD56-879 (protein)
chain 1: EVQLVQSGAEVKKPGESLKISCKGSGYRFTNYWIGWVRQMPGKGLEWMNIFHPGDSDTRYSPSFQGQVTFSADKSISTAYLQWSSLKASDTAMYYCARLNNYDILTGVSPYFDYWGQGTLVTVSS
chain 2: QSALTQPASVSGSPGQSITISCTGTSSDVVAYNYVSWYQHHPGKAPKLMIYDVSDRPSGVSNRFSGSKSGNTASLTISGLQAEDEADYYCSSYTSSSTWVFGGGTKLTVL
As for B3, the “pseudovirus neutralization IC50” value in [1] is 0.169 µg/mL; in assay [2], 0.439 µg/mL; in [3], 0.843 µg/mL; in assay [4], greater than 10 µg/mL; in assay [5], greater than 10 µg/mL; in [6], greater than 10 µg/mL. Further, the “pseudovirus neutralization IC50” value in assay [7], in assay [8], in assay [9], in [10] and in assay [11] was greater than 10 µg/mL in each case.

B4: BD55-5689 (protein)
chain 1: QVPLQESGPGLVKPSETLSLTCSVSGPSITSYYWSWIRQPPGKGLEWIGFIYFSGSTNYNPSLKSRVTISVDTSKNQFSLKLSSVTAADTAVYYCAQIWVAGKAGSWFDPWGQGTLVTVSS
chain 2: QSVLTQPPSASGTPGQRVTISCSGSSSNIGSNTVNWYQQLPGTAPKLLIYRNNQRPSGVPDRFSGSKSGTSASLAISGLQSEDEADYYCATWDDSLNGPVFGGGTKLTVL
For B4, the “pseudovirus neutralization IC50” value in assay [7] is greater than 10 µg/mL; in assay [10] it was greater than 10 µg/mL; in [11] it was 0.00182 µg/mL.

B5: BD56-841 (protein)
chain 1: QVQLVQSGAEVKKPGASVRVSCKTSGYTFTNYGISWVRQAPGQGLEWMGWISAYNGDTNYAQELQDRVTMTTDTSTSTAYMELRSLRSDDTAVYYCAREIVLVSSMWPEPVYWGQGTLVTVSS
chain 2: NFMLTQPHSVSESPGKTVTISCTRSSGSIASNFVQWYQQRPGSAPTTVICEDNQRPSGVPDRFSGSIDRSSNSASLTISGLKTEDEADYYCQSYDSSNHVVFGGGTKLTVL
On to B5, for which the “pseudovirus neutralization IC50” value is 0.0119 µg/mL in assay [1]; 0.0489 µg/mL in assay [2]; greater than 10 µg/mL in assay [3]; greater than 10 µg/mL in [4]; greater than 10 µg/mL in assay [5]; greater than 10 µg/mL in assay [6]. In addition, the “pseudovirus neutralization IC50” value in [7], in assay [8], in assay [9], in assay [10] and in assay [11] was greater than 10 µg/mL in each case.

B6: BD56-871 (protein)
chain 1: QVTLRESGPALVKPTQTLTLTCTFSGFSLSTSGMCVSWIRQPPGKALEWLALIDWDDDKYYSTSLKTRLTISKDTSKSQVVLTMTNMDPVDTATYYCARTHSDYYYYGMDVWGQGTTVTVSS
chain 2: SYELTQPPSVSVSPGQTARITCSADALPIQYAYWYQQKPGQAPVLVIYKDSERPSGIPERFSGSSSGTTVTLTISGVQAEDEADYYCQSADSSASYQVFGGGTKLTVL
With B6, the “pseudovirus neutralization IC50” value in assay [1] is 0.808 µg/mL; in [2], greater than 10 µg/mL; in [3] it was greater than 10 µg/mL; in assay [4] it was greater than 10 µg/mL; in assay [5], greater than 10 µg/mL; in [6], greater than 10 µg/mL. Also, the “pseudovirus neutralization IC50” value in [7], in [8], in assay [9], in [10] and in assay [11] was greater than 10 µg/mL each time.

B7: BD56-877 (protein)
chain 1: QVQLQESGPGLVKPSETLSLTCTVSGGSVSSSSYYWSWIRQPPGKGLEWIGYFYYSGSTNYNPSLNSRVTISVDTSKNQVSLKLSSVTAADTAVYYCARGNILMVRGVIPAFDIWGQGTMVTVSS
chain 2: QSVLTQPPSVSGAPGQRVTISCTGSSSNIGAGYDVHWYQQLPGTAPKLLIYGNSNRPSGVPDRFSGSKSGTSASLAITGLQAEDEADYYCQSYDSSLSGLFGGGTKLTVL
B7: the “pseudovirus neutralization IC50” value is 0.0159 µg/mL in assay [1]; greater than 10 µg/mL in [2]; greater than 10 µg/mL in assay [3]; greater than 10 µg/mL in assay [4]; greater than 10 µg/mL in [5]; greater than 10 µg/mL in [6]. The “pseudovirus neutralization IC50” value in [7], in [8], in assay [9], in assay [10] and in assay [11] was greater than 10 µg/mL throughout.

B8: BD56-890 (protein)
chain 1: EVQVVESGGGLVQPGRSLRLSCIASGFSFGDYAMSWVRQAPGKGLEWVSFIRSKAYGGTTEYAASVKGRFTISRDDSKSIAYLQMNSLTTEDTAVYYCASSEGGLFDYWGQGILVTVSS
chain 2: DIQMTQSPSSLSASVGDRVTITCQATQDINNYLNWYQQKPGKAPKLLIYDASNLDTGVPSRFSGSGSGTDFTFTISSLQPEDIATYYCQQYDNLPWTFGQGTKVEIK
On to B8, for which the “pseudovirus neutralization IC50” value is 0.012 µg/mL in assay [1]; 0.142 µg/mL in assay [2]; greater than 10 µg/mL in assay [3]; greater than 10 µg/mL in assay [4]; greater than 10 µg/mL in assay [5]; greater than 10 µg/mL in [6]. The “pseudovirus neutralization IC50” value in assay [7], in assay [8], in [9], in [10] and in assay [11] was greater than 10 µg/mL in each case.

B9: BD56-836 (protein)
chain 1: QVQLQESGPGLVKPSETLSLTCTVSGGSISSYYWSWIRQPPGKGLEWIGYIYYSGSTNYNPSLKSRVTISVDTSKNQFSLKLSSVTAADTAVYYCASTPEYSSSYYFDYWGQGTLVTVSS
chain 2: SYELTQPPSVSVSPGQTARITCSADALPQQYAYWYQQKPGQAPVVVIYKDTERPSGIPERFSGSSSGTTVTLTISGVQAEDEADYYCQSADSSGTYPVVFGGGTKLTVL
B9: the “pseudovirus neutralization IC50” value is 0.422 µg/mL in assay [1]; greater than 10 µg/mL in [2]; greater than 10 µg/mL in assay [3]; greater than 10 µg/mL in assay [4]; greater than 10 µg/mL in assay [5]; greater than 10 µg/mL in [6]. Moreover, the “pseudovirus neutralization IC50” value in assay [7], in assay [8], in assay [9], in assay [10] and in assay [11] was greater than 10 µg/mL each time.

B10: BD56-852 (protein)
chain 1: QVQLVESGGGLVKPGGSLRLSCAASGFTFSDYYMSWIRQAPGKGLEWVSYISSSGSTIYYADSVKGRFTISRDNAKNSLYLQMNSLRAEDTAVYYCAGCASYSSSWYANYWGQGTLVTVSS
chain 2: SYELTQPPSVSVSPGQTARITCSGDALPTQYAYWYQQRPGQAPVLVIYKDTERPSGIPERFSGSSSGTTVTLTISGVQAEDEADYYCQSADSSGPYPGVFGGGTKLTVL
Turning to B10, the “pseudovirus neutralization IC50” value was found to be 0.0649 µg/mL in [1]; 0.191 µg/mL in assay [2]; 0.387 µg/mL in assay [3]; 0.371 µg/mL in assay [4]; 0.345 µg/mL in assay [5]; 0.208 µg/mL in assay [6]. For the same molecule, the “pseudovirus neutralization IC50” value was greater than 10 µg/mL in [7]; 0.275 µg/mL in [8]; 0.635 µg/mL in [9]; greater than 10 µg/mL in assay [10]; greater than 10 µg/mL in assay [11].

B11: BD56-850 (protein)
chain 1: QVQLVQSGAEVKKPGSSVKVSCKASGGTFSSYAISWVRQAPGQGLEWMGGIIPIFGTANYAQKFQGRVTITADESTSTADMELSSLRSEDTAVYYCATTPQLYFGSGGGYYFDYWGQGTLVTVSS
chain 2: DIQMTQSPSSLSASVGDRVTITCQASQDISNYLNWYQQKPGKAPKLLIYDASNLETGVPSRFSGSGFGTDFTFTITSLQPEDFATYYCQHYDVFGQGTKLEIK
Take B11: the “pseudovirus neutralization IC50” value in assay [1] is 0.00887 µg/mL; in [2], 0.0307 µg/mL; in [3], 0.594 µg/mL; in assay [4] it was 0.326 µg/mL; in assay [5], 0.148 µg/mL; in [6], 0.277 µg/mL. For the same molecule, the “pseudovirus neutralization IC50” value in assay [7] is 5.19 µg/mL; in assay [8] it was 0.19 µg/mL; in assay [9] it was 0.204 µg/mL; in assay [10], 0.269 µg/mL; in assay [11] it was greater than 10 µg/mL.

B12: BD56-886 (protein)
chain 1: QVQLVESGGGVVQPGRSLRLSCAVSGFTFSTHGMHWVRQAPGKGLEWVAFIWYDGSEKYYADSVKGRFTISRDNPKNTLYLHMNGLRVEDTAVYYCAKDLIGYCSAGYCYIFDFWGQGALVTVSS
chain 2: NFMLTQPHSVSESPGKTVTISCTRSSGGIASNFVQWYQQRPGSPPTTVIYEDDQRPSGVPDRFSGSIDRSSNSASLTISGLKTEDEAEYYCQSYENNNQGVIFGGGTKLTIL
For B12, the “pseudovirus neutralization IC50” value was 0.0726 µg/mL in [1]; greater than 10 µg/mL in [2]; 0.432 µg/mL in assay [3]; 2.19 µg/mL in assay [4]; 2.2 µg/mL in assay [5]; 3 µg/mL in assay [6]. Further, the “pseudovirus neutralization IC50” value was greater than 10 µg/mL in assay [7]; 3.09 µg/mL in assay [8]; 2.08 µg/mL in [9]; greater than 10 µg/mL in assay [10]; greater than 10 µg/mL in assay [11].
